Pooled drug test results. Numbers come from NIAID ChemDB, via PubChem.

All rows: tests in culture; species: HIV-1

Neighbouring rows are from separate reports. ECn: concentration that inhibits the pathogen or its effect by n%. Blank or dashed fields: not listed here.

smiles,read by,strain,mutations,setting,endpoint,cell line,value
CCc1c(Sc2ccccc2)n(COCc2ccccc2)c(=O)[nH]c1=O,cytopathic effect,Nevirapine-resistant,,,EC50,MT-2,0.14 ± 0.04 µM
NC(CC(=O)O)C(=O)O,,LAV,,,EC50,MT-4,>100 µg/mL
CC(C)CN(C[C@@H](O)[C@H](Cc1ccccc1)NC(=O)O[C@H]1CCOC1)S(=O)(=O)c1ccc(N)cc1,cytopathic effect / MTT,GAG-L75R H219 V390 APV-resistant,Gag L75R R409K L449F E468K PR L10F V32I M46I I54M A71V I84V,,EC50,MT-2,>2.5 µM
Cc1cn([C@H]2C[C@H](N=[N+]=[N-])[C@@H](CO)O2)c(=O)[nH]c1=O,RT activity,Group O isolate,,,EC90,PBMC,0.04 µM
CC(C)c1c(COC(N)=O)cn(Cc2ccncc2)c1Sc1ccccc1,cytopathic effect / MTT,,RT-K103N,,EC50,,>100 µM
Cc1c(Sc2ccccc2)n(COCCO)c(=O)[nH]c1=O,p24,BaL,,,EC50,PB macrophages (day 12) + Macrophage,1 µM
CC(C)CN(C[C@@H](O)[C@H](Cc1cc(F)cc(F)c1)NC(=O)O[C@H]1CCO[C@H]2OCC[C@H]21)S(=O)(=O)c1ccc2nc(NC(C)C)sc2c1,p24 / luminescence,92UG037,,,EC50,PBMC,0.00033 µM
CC(=O)Oc1ccc(/C=C/C(=O)O[C@H](C(=O)O)[C@H](OC(=O)/C=C/c2ccc(OC(C)=O)c(OC(C)=O)c2)C(=O)O)cc1OC(C)=O,,NL4-3,AMD2763-resistant,,EC50,MT-4,>93 µM
COc1cc(C[C@H](C)[C@H](C)Cc2ccc(O)c(O)c2)ccc1O,p24,VS,,,EC50,PBMC,~10 µg/mL
CCC(C)Oc1nc(N)cc(Sc2cccc(C)c2)n1,cytopathic effect / MTT,IIIB,,,EC50,MT-4,>115 µM
Cc1cn([C@H]2C[C@H](N=[N+]=[N-])[C@@H](CO)O2)c(=O)[nH]c1=O,p24,G910-11-(RT-T215Y/F) NRTI resistant,RT-T215Y/F,,EC50,PBMC,0.216 µM
CCn1nc(Cc2ccc(Oc3ccccc3)cc2)cc1C1CCN(C[C@H]2CN([C@@H](C(=O)O)C(C)C)C[C@@H]2c2cccc(F)c2)CC1,β-galactosidase,BaL,,,EC90,HeLa,0.011 µM
OC[C@@H]1[C@@H](O)[C@@H](O)[C@H]2[C@@H](O)CCN21,syncytia,GB8,,,EC50,JM,16 µM
Cc1cn([C@H]2C[C@H](N=[N+]=[N-])[C@@H](CO)O2)c(=O)[nH]c1=O,p24 / RT activity,RF,,,EC50,CEM + CEM-SS,0.095 µM
CCn1nc(Cc2ccc(OC(F)(F)F)cc2)cc1C1CCN(C[C@H]2CN([C@@H](C(=O)O)C(C)(C)C)C[C@@H]2c2cccc(F)c2)CC1,β-galactosidase,BaL,,50% human serum,EC50,HeLa,<0.1 µM
Cc1cn([C@H]2C[C@H](N=[N+]=[N-])[C@@H](CO)O2)c(=O)[nH]c1=O,,PERE98287RT Recombinant,,,EC50,,>8 µM
CCC(C)Oc1cc(N)nc(Sc2ccc(Cl)cc2)n1,cytopathic effect / MTT,IIIB,,,EC50,MT-4,>106 µM
CC(C)=CCN1Cc2cccc3[nH]c(=S)n(c23)C[C@@H]1C,RT activity,Subtype B isolate,,,EC50,PBMC,0.09 µM
CC[C@@H](C)[C@H](C(=O)O)N1C[C@H](CN2CCC(c3cc(Cc4cccc(CN)c4)nn3CC)CC2)[C@@H](c2cccc(F)c2)C1,β-galactosidase,BaL,,,EC90,HeLa,0.0037 µM
CC[C@H](C)[C@H](NC(=O)Cc1ccccn1)C(=O)N[C@@H](Cc1ccccc1)[C@@H](O)[C@H](O)[C@H](Cc1ccccc1)NC(=O)[C@@H](NC(=O)Cc1ccccn1)[C@@H](C)CC,plaque count / virus yield,Clinical isolate E,,,EC90,MT-2,0.95 µg/mL
CC(C)c1nc(CN(C)C(=O)N[C@H](C(=O)N[C@@H](Cc2ccccc2)C[C@H](O)[C@H](Cc2ccccc2)NC(=O)OCc2cncs2)C(C)C)cs1,,PERE98287RT Recombinant,,,EC50,,0.1 µM
CCn1nc(Cc2ccc(S(=O)(=O)c3ccccc3)cc2)cc1C1CCN(C[C@H]2CN([C@@H](C(=O)O)C(C)(C)C)C[C@@H]2c2cccc(F)c2)CC1,β-galactosidase,BaL,,,EC90,HeLa,<0.00014 µM
CCC(C)Oc1cc(N)nc(S(=O)(=O)c2cccc(OC)c2)n1,cytopathic effect / MTT,IIIB,,,EC50,MT-4,>99.5 µM
CC[C@H](C)[C@H](C(=O)O)N1C[C@H](CN2CCC(c3cc(Cc4cc(C(F)(F)F)cc(C(F)(F)F)c4)nn3CC)CC2)[C@@H](c2cccc(F)c2)C1,β-galactosidase,BaL,,,EC90,HeLa,0.011 µM
O[C@@H]1[C@@H](O)[C@@H](O)CN2CC[C@@H](O)[C@@H]12,syncytia,GB8,,,EC50,JM,7.8 µM
CC(C)NCC(O)COc1cccc2[nH]ccc12,,LAV,,,EC50,MT-4,>100 µg/mL
CCC(C)Oc1nc(Sc2ccccc2)cc(=O)[nH]1,cytopathic effect / MTT,IIIB,,,EC50,MT-4,>147 µM
C[C@H]1COc2c(N3CCN(C)CC3)c(F)cc3c(=O)c(C(=O)O)cn1c23,cytopathic effect / XTT,IIIB,,,EC50,MT-4,>50 µg/mL
CC(C)CN(C[C@@H](O)[C@H](Cc1ccccc1)NC(=O)O[C@H]1CCOC1)S(=O)(=O)c1ccc(N)cc1,p24 / luminescence,97ZA003,,,EC50,PBMC,0.032 µM
Cc1ccnc2c1NC(=O)c1cccnc1N2C1CC1,,IIIB S0561945,,,EC50,,>15 µM
Cc1cn([C@H]2C[C@H](N=[N+]=[N-])[C@@H](CO)O2)c(=O)[nH]c1=O,RT activity,LAI,,,EC50,CEM + CEM-SS,0.0012 µM
COc1oc([C@H]2C/C(=C/C(C)=C/c3ccc(C(C)(C)C)cc3)CO2)c(C)c(=O)c1C,fluorescence,LAI,,,EC90,PBMC + LC5-RIC,3.939 µM
CCOC(=O)c1cn(Cc2ccncc2)c(Sc2cc(Cl)cc(Cl)c2)c1C(C)C,cytopathic effect / MTT,IIIB,,,EC50,MT-4,0.9 µM
COc1oc([C@H]2C/C(=C/C(C)=C/c3ccc(-c4ccccc4)cc3)CO2)c(C)c(=O)c1C,fluorescence,LAI,,,EC90,PBMC + LC5-RIC,0.4635 µM
CC(C)c1c(CO)cn(Cc2ccncc2)c1Sc1cc(Cl)cc(Cl)c1,p24,,RT-Y181C,,EC50,C8166,<1.7 µM
CC1COc2c(N3CCN(C)CC3)c(F)cc3c(=O)c(C(=O)O)cn1c23,cytopathic effect / XTT,IIIB,,,EC50,MT-4,>50 µg/mL
CC(C)[C@H](NC(=O)N(C)Cc1ccccn1)C(=O)N[C@@H](Cc1ccccc1)[C@H](O)[C@H](O)[C@H](Cc1ccccc1)NC(=O)[C@@H](NC(=O)N(C)Cc1ccccn1)C(C)C,p24,NL4-3,,,EC50,MT-4,0.2 µM
COC(=O)c1ccc(/C=C(C)/C=C2\CO[C@@H](c3oc(OC)c(C)c(=O)c3C)C2)cc1,fluorescence,LAI,,,EC90,PBMC + LC5-RIC,141 µM
Cc1ccnc2c1NC(=O)c1cccnc1N2C1CC1,cytopathic effect,Nevirapine-resistant,,,EC50,MT-2,4.5 ± 1 µM
C[C@](N)(Cc1ccc(O)c(O)c1)C(=O)O,,LAV,,,EC50,MT-4,>1 µg/mL
COc1oc([C@H]2C/C(=C/C(C)=C/c3ccc(Cl)cc3)CO2)c(C)c(=O)c1C,fluorescence,LAI,,,EC90,PBMC + LC5-RIC,2.937 µM
OCc1cn(Cc2ccncc2)c(Sc2ccccc2)c1-c1ccccc1,cytopathic effect / MTT,IIIB,,,EC50,MT-4,5 µM
COc1ccc(S(=O)(=O)O)cc1N=Nc1c(S(=O)(=O)O)cc2cc(Nc3nc(Nc4ccccc4)nc(Nc4cc(C)c(N=Nc5cc(S(=O)(=O)O)cc6cc(S(=O)(=O)O)cc(O)c56)cc4OC)n3)ccc2c1O,cytopathic effect / MTT,NL4-3,GP41-L33S,,EC50,MT-4,0.3 µg/mL
CCC(C)Oc1cc(N)nc(Sc2ccccc2N)n1,cytopathic effect / MTT,IIIB,,,EC50,MT-4,>200 µM
CCn1nc(Cc2ccc(C(F)(F)F)cc2)cc1C1CCN(C[C@H]2CN([C@@H](C(=O)O)C3CCCCC3)C[C@@H]2c2cccc(F)c2)CC1,β-galactosidase,BaL,,,EC50,HeLa,<0.0004 µM
CCC[C@@]1(CCc2ccccc2)CC(O)=C([C@H](CC)c2cccc(NS(=O)(=O)c3ccc(C(F)(F)F)cn3)c2)C(=O)O1,p24,Clinical isolates,,,EC50,PBMC,0.224 µM
S=C(NCCc1cccs1)Nc1ccc(Br)cn1,plaque count,P467-1 Clinical isolate NRTI-resistant,RT-K70R,,EC50,HT4 + HeLa,0.0611 µM
c1cc(CN2CCCNCCNCCCNCC2)ccc1CN1CCCNCCNCCCNCC1,p24,CM1 CLADE C R5,,,EC50,PBMC,>0.5 µM
CCCOc1ccc(Cc2cc(C3CCN(C[C@H]4CN([C@@H](C(=O)O)[C@H](C)CC)C[C@@H]4c4cccc(F)c4)CC3)n(CC)n2)cc1,β-galactosidase,BaL,,50% human serum,EC90,HeLa,0.3 µM
CC(C)(CO)[C@@H](O)C(=O)NCCC(=O)NCCSSCCNC(=O)CCNC(=O)[C@H](O)C(C)(C)CO,,LAV,,,EC50,MT-4,>10 µg/mL
CCn1nc(Cc2ccc(Oc3ccccc3)cc2)cc1C1CCN(C[C@H]2CN([C@@H](C(=O)O)C3CCCCC3)C[C@@H]2c2cccc(F)c2)CC1,β-galactosidase,BaL,,,EC50,HeLa,<0.0012 µM
O=C(O)c1cn(C2CC2)c2cc(N3CCNCC3)c(F)cc2c1=O,cytopathic effect / XTT,IIIB,,,EC50,MT-4,>50 µg/mL
OC[C@@H]1[C@@H](O)[C@H](O)[C@H]2[C@H](O)CCN21,syncytia,GB8,,,EC50,JM,4.5 µM
CC(C)Nc1cccnc1N1CCN(C(=O)c2cc3cc(NS(C)(=O)=O)ccc3[nH]2)CC1,antigen,HXB2,,,EC90,MT-4,0.06 µM
c1cc(CN2CCCNCCNCCCNCC2)ccc1CN1CCCNCCNCCCNCC1,,NL4-3,,,EC50,MT-4,0.02 µM
Nc1ncnc2c1ncn2[C@H]1CC[C@@H](CO)O1,RT activity,LAI,,,EC50,CEM + CEM TK-,1 µM
COc1oc([C@H]2C/C(=C/C(C)=C/c3ccc(C(F)(F)F)cc3Cl)CO2)c(C)c(=O)c1C,fluorescence,LAI,,,EC90,PBMC + LC5-RIC,0.0741 µM
CCc1c(Sc2ccccn2)n(COCc2ccccc2)c(=O)[nH]c1=O,cytopathic effect,IIIB,,,EC50,MT-2,0.06 ± 0.02 µM
CCn1nc(Cc2ccc(C#N)cc2)cc1C1CCN(C[C@H]2CN([C@@H](C(=O)O)C(C)(C)C)C[C@@H]2c2cccc(F)c2)CC1,p24,BaL,,,EC95,PBMC,0.0019 µM
COc1oc([C@H]2C/C(=C/C(C)=C/c3ccc(S(C)(=O)=O)cc3)CO2)c(C)c(=O)c1C,fluorescence,LAI,,,EC50,PBMC + LC5-RIC,0.9593 µM

For reference, 4 entries again:

smiles | read by | strain | mutations | setting | endpoint | cell line | value
CC(C)c1c(CO)cn(Cc2ccncc2)c1Sc1cc(Cl)cc(Cl)c1 | p24 |  | RT-Y181C |  | EC50 | C8166 | <1.7 µM
COC(=O)c1ccc(/C=C(C)/C=C2\CO[C@@H](c3oc(OC)c(C)c(=O)c3C)C2)cc1 | fluorescence | LAI |  |  | EC90 | PBMC + LC5-RIC | 141 µM
Cc1cn([C@H]2C[C@H](N=[N+]=[N-])[C@@H](CO)O2)c(=O)[nH]c1=O | RT activity | Group O isolate |  |  | EC90 | PBMC | 0.04 µM
CCOC(=O)c1cn(Cc2ccncc2)c(Sc2cc(Cl)cc(Cl)c2)c1C(C)C | cytopathic effect / MTT | IIIB |  |  | EC50 | MT-4 | 0.9 µM